Here are results for six substances from patent US10512665B2, “Methods and compositions related to inhibition of viral entry” (University of Utah Research Foundation, priority 2007, dated 2019).

In this test the target is T1, IZN36 (Human immunodeficiency virus type 1 group M subtype B, UniProt P04578).
T1 construct: an immobilized N-trimer mimic (IZN36); IZ designed trimeric isoleucine-zipper coiled coil, fused before the gp41 segment (own knowledge from the name IZN36); His-tag (cleaved yes); made in house; host or cells: E. coli BL21(DE3)pLysS, pET14b
Description: Surface plasmon resonance binding to immobilized N-trimer mimic IZN36. Details: species or system HIV-1. Particulars: SPR, 20° C. The procedure: To determine if the improved potency of these inhibitors stems from optimization of affinity for the pocket, the binding properties of the D-peptides to an immobilized N-trimer mimic (IZN36) was characterized using surface plasmon resonance (SPR) (Table 3).
SPR was performed essentially as described (Hamburger 2005). Briefly, biotinylated IZN36 was captured onto a SA (Pierce) surface, and a free SA surface served as the reference control. Each binding study was performed in duplicate at 20° C. using a 3-fold decreasing concentration series starting from 10 μM for D10-p5, 189 nM for PEG-(PIE)2, or 2 (all others). Only 2K-PIE1 and PEG-(PIE)2 required a specific regeneration step (one 20 s pulse of 6M GuHCl). The IZN36 surface was very stable to this regeneration condition. Data were analyzed using Scrubber2 (BioLogic Software).
(Surface plasmon resonance follows binding to a sensor surface in real time, without labels.)
What is called Kd is the free concentration of one partner at which half of the binding sites on the other are occupied at equilibrium, for simple one-to-one binding. Low readings indicate higher affinity, high ones lower affinity. “KKGACELLGWEWAWLCAA [D10-p5, reference compound]” yielded a Kd of 6800 nM.

KGACDYPEWQWLCAA [PIE7] returned a Kd of 120 nM.

Substance KKGACDYPEWRWLCAA [2K-PIE2] returned a dissociation constant (Kd) of 260 nM.

In the case of PEG-(KGACDYPEWQWLCAA)2 [PEG-(PIE7)2], the Kd is ~1 nM.

The substance KGACDYKEWQWLCAA [PIE8] displayed a Kd of 190 nM.

In the case of KGACDYPEWRWLCAA [PIE2], the Kd was 200 nM.
